# This is a selection; strong and weak results do not stand in their true shares. Calls of active or inactive are those of the source.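 The calls were made as follows: active = inhibition above the mean plus 3 SD of compounds within the control limits, set per campaign (cut at about 38% in these data); inactive = the rest.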
# Experiment: late stage P. falciparum gametocyte viability inhibitors, primary screen, ATP luminescence, HTS (AID 743093);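 also: 0% = DMSO wells and 100% = medium only without gametocytes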
# Details: P. falciparum stage V gametocytes, 24 h, at 10.9 µM, active compounds read high
row,SMILES,inhibition
1,O=[N+]([O-])c1cc([N+](=O)[O-])c(-n2nnc3ccccc32)c([N+](=O)[O-])c1,inactive: 9.64%
2,O=[N+]([O-])c1cc([N+](=O)[O-])c(-c2cnn(-c3ccccc3)c2)c([N+](=O)[O-])c1,inactive: -18%
3,CCOC(=O)C(CC)C1=NC(C)(C)Cc2ccccc21.O=[N+]([O-])c1cc([N+](=O)[O-])c(O)c([N+](=O)[O-])c1 (stereo not given),inactive: 24.2%
4,CCCOc1ccc(NP(C)(=O)Oc2ccc(Cl)cc2)cc1 (stereo not given),inactive: -20.7%
5,CN1CCCCC1COC(=O)C1(O)c2ccccc2CCc2ccccc21 (stereo not given),inactive: -3.74%
6,O=C(O)c1cccc(Nc2c([N+](=O)[O-])cc([N+](=O)[O-])cc2[N+](=O)[O-])c1,inactive: 21.2%
7,CCOC(=O)c1ccc(NP(C)(=O)Oc2cc(C)cc(C)c2)cc1 (stereo not given),inactive: 22%
8,Cc1cc(C)cc(OP(C)(=O)Nc2ccc(C)cc2C)c1 (stereo not given),inactive: -3.84%
9,COc1ccccc1OP(C)(=O)Nc1cccc(Br)c1 (stereo not given),inactive: 2.35%
10,Cc1ccc(C)c(NP(C)(=O)Oc2ccccc2)c1 (stereo not given),inactive: 8.86%
11,CCN(CC)CCCOC(=O)C(O)(c1ccccc1)c1ccccc1,inactive: 1.46%
12,O=[N+]([O-])c1ccc2c(c1)C=Nc1ccccc1O2,inactive: -12.2%
13,CC(C)(C)c1ccc(OP(C)(=O)Nc2ccc(SC(F)(F)F)cc2)cc1 (stereo not given),inactive: -4.25%
14,Cc1cccc(C)c1OP(C)(N)=O (stereo not given),inactive: 13.8%
15,Cc1cc(C)cc(OP(C)(N)=O)c1 (stereo not given),inactive: -10.7%
16,COc1ccccc1OP(C)(=O)Nc1cc(Cl)ccc1C (stereo not given),inactive: -7.79%
17,COc1ccc(OP(C)(=O)Nc2cccc(F)c2)cc1 (stereo not given),inactive: 23.3%
18,CCOC(=O)c1ccc(NP(C)(=O)Oc2ccccc2)cc1 (stereo not given),inactive: 7.69%
19,CP(=O)(Nc1ccccc1Br)Oc1ccccc1 (stereo not given),inactive: 14.7%
20,COc1ccccc1OP(C)(=O)Nc1ccccc1 (stereo not given),inactive: -8.86%

row,SMILES,inhibition
1,CP(=S)(Nn1cnnc1)Oc1ccccc1 (stereo not given),inactive: -8.6%
2,CCc1ccc(OP(C)(=O)N2CCN(c3ccc([N+](=O)[O-])cc3)CC2)cc1 (stereo not given),inactive: -17.8%
3,CP(=O)(NC(=O)Nc1ccccc1)Oc1ccccc1 (stereo not given),inactive: 8.03%
4,Cc1cc(C)cc(OP(C)(=O)Nc2ccc(SC(F)(F)F)cc2)c1 (stereo not given),inactive: -11.8%
5,CP(=O)(Nc1ccc(SC(F)(F)F)cc1)Oc1ccc(Cl)cc1 (stereo not given),inactive: 10.8%
6,Cc1cccc(C)c1OP(C)(=O)Nc1ccc(SC(F)(F)F)cc1 (stereo not given),inactive: 19%
7,O=[N+]([O-])c1cc([N+](=O)[O-])c(O)c([N+](=O)[O-])c1.c1ccc(Oc2ccncc2)cc1,inactive: -11%
8,CCOC(=O)c1ccc(NP(C)(=O)Oc2ccc(OC)cc2)cc1 (stereo not given),inactive: -24.1%
9,CCOP(C)(=S)SCC(=O)NC(C)C(=O)O (stereo not given),inactive: 13.6%
10,O=C(OCCCN1CCCC1)C(O)(c1ccccc1)C1CCCCC1 (stereo not given),inactive: -1.91%
11,CP(=O)(Oc1ccccc1)N1CCOC1=O (stereo not given),inactive: -4.25%
12,CCc1ccc(OP(C)(=O)Nc2cccnc2)cc1 (stereo not given),inactive: 11.9%
13,CN(C)C(=O)c1c([N+](=O)[O-])cc([N+](=O)[O-])cc1[N+](=O)[O-],inactive: 0.02%
14,CC(C)(C)c1ccc(OP(C)(=O)O)cc1,inactive: -4.17%
15,COc1ccccc1OP(C)(=O)Nc1ccccc1Br (stereo not given),inactive: 9.5%
16,CCOC(=O)c1ccc(NP(C)(=O)Oc2ccc(Cl)cc2)cc1 (stereo not given),inactive: 4.34%
17,Nc1ccc2c(ccc3cccnc32)n1.O=[N+]([O-])c1cc([N+](=O)[O-])c(O)c([N+](=O)[O-])c1,inactive: -2.97%
18,COc1ccc(OP(C)(=O)Nc2ccccc2Br)cc1 (stereo not given),inactive: 20.4%
19,Cc1cc(C)cc(OP(C)(=O)Nc2cccc(C(F)(F)F)c2)c1 (stereo not given),inactive: 0.06%
20,CP(=O)(OCCOc1ccccc1)OCCOc1ccccc1,inactive: -9.6%

row,SMILES,inhibition
1,COc1ccccc1OP(C)(=O)Nc1ccc(Br)cc1 (stereo not given),inactive: 22.9%
2,CP(=O)(Nc1ccccn1)Oc1ccccc1 (stereo not given),inactive: 5.51%
3,O=[N+]([O-])c1cc([N+](=O)[O-])c(Nc2ccccn2)c([N+](=O)[O-])c1,inactive: 9.42%
4,Cc1c(NP(C)(=O)Oc2ccc(C(C)C)cc2)c(=O)n(-c2ccccc2)n1C (stereo not given),inactive: 6.84%
5,CP(=O)(Nc1ccccc1F)Oc1ccccc1 (stereo not given),inactive: -16%
6,CC(C)c1ccc(OP(C)(=O)Nc2ccc(SC(F)(F)F)cc2)cc1 (stereo not given),inactive: 5.97%
7,O=C(OC1CN2CCC1CC2)c1ccc([N+](=O)[O-])cc1 (stereo not given),inactive: 1.28%
8,O=C(OCCN1CCN(CCOCc2ccccc2)CC1)C(O)(c1ccccc1)c1ccccc1,inactive: 1.14%
9,CCOC(=O)c1ccc(NP(C)(=O)Oc2ccc(F)cc2)cc1 (stereo not given),inactive: 19.5%
10,COc1ccc(OP(C)(=O)Nc2ccc(SC(F)(F)F)cc2)cc1 (stereo not given),inactive: 7.29%
11,O=[N+]([O-])c1cc([N+](=O)[O-])c(OC2CCCCC2O)c([N+](=O)[O-])c1 (stereo not given),inactive: 2.38%
12,CCCCCOc1ccc(NP(C)(=O)Oc2ccc(Cl)cc2Cl)cc1 (stereo not given),inactive: -2.99%
13,CCN(CC)CCCOC(=O)C(O)(c1ccccc1)C1CCCCC1 (stereo not given),inactive: -1.8%
14,COc1ccc(NP(C)(=O)Oc2ccccc2OC)cc1 (stereo not given),inactive: -7.81%
15,Cc1c(C(c2ccc3c(c2)OCO3)c2c(C)n(C)n(-c3ccccc3)c2=O)c(=O)n(-c2ccccc2)n1C.O=[N+]([O-])c1cc([N+](=O)[O-])c(O)c([N+](=O)[O-])c1,inactive: 12.7%
16,Cc1cc(-c2cccc3ccccc23)c(C)cn1.O=[N+]([O-])c1cc([N+](=O)[O-])c(O)c([N+](=O)[O-])c1,inactive: -5.46%
17,O=[N+]([O-])c1cc([N+](=O)[O-])c(NCC2CCS(=O)(=O)C2)c([N+](=O)[O-])c1 (stereo not given),inactive: 12.9%
18,CP(=O)(Nc1ccc(SC(F)(F)F)cc1)Oc1ccc(F)cc1 (stereo not given),inactive: 26.2%
19,Cc1ccccc1NP(C)(=O)Nc1ccccc1C,inactive: 2.38%
20,CP(=O)(Nc1ccc2c(c1)OCCO2)Oc1ccccc1 (stereo not given),inactive: 16.2%

# From PubChem BioAssay AID743093 (The Scripps Research Institute Molecular Screening Center, 2013)
